# Test results taken from article PMC8703412 (Pharmaceuticals, 2021).
# Columns and labels:
# [1] = test system: Mycobacterium kansasii 6509/96 (clinical isolate); assay: MIC micromethod in Šula's medium, M. kansasii; type: cell-based; conditions: SI = IC50 (HepG2)/MIC
# [2] = test system: Mycobacterium tuberculosis strain 331/88 (i.e., H37Rv); assay: MIC micromethod in Šula's medium, drug-susceptible Mtb.; type: cell-based
smiles,measurement,setting,value
"COC(=O)/C(C)=N/NC(=O)c1ccncc1 [3a, Methyl (E)-2-(2-isonicotinoylhydrazineylidene)propanoate]",SI for M. kansasii 6509/96,[1],≥125
same,SI for Mtb. 331/88,[2]; SI = IC50 (HepG2)/MIC,≥4000
"C/C(=N\NC(=O)c1ccncc1)C(=O)Oc1ccc(C)cc1 [3c, p-Tolyl (E)-2-(2-isonicotinoylhydrazineylidene)propanoate]",SI for M. kansasii 6509/96,[1],≥125
same,SI for Mtb. 331/88,[2]; SI = IC50 (HepG2)/MIC,≥2000
"C/C(=N\NC(=O)c1ccncc1)C(=O)Oc1ccc(Oc2ccccc2)cc1 [3e, 4-Phenoxyphenyl (E)-2-(2-isonicotinoylhydrazineylidene)propanoate]",SI for M. kansasii 6509/96,[1],≥137.8
same,SI for Mtb. 331/88,[2]; SI = IC50 (HepG2)/MIC,≥1102
"C/C(=N\NC(=O)c1ccncc1)C(=O)Oc1ccc(F)cc1 [3f, 4-Fluorophenyl (E)-2-(2-isonicotinoylhydrazineylidene)propanoate]",SI for M. kansasii 6509/96,[1],≥250
same,SI for Mtb. 331/88,[2]; SI = IC50 (HepG2)/MIC,≥2000
"C/C(=N\NC(=O)c1ccncc1)C(=O)Oc1ccc(Br)cc1 [3h, 4-Bromophenyl (E)-2-(2-isonicotinoylhydrazineylidene)propanoate]",SI for M. kansasii 6509/96,[1],≥62.5
same,SI for Mtb. 331/88,[2]; SI = IC50 (HepG2)/MIC,≥4000
"C/C(=N\NC(=O)c1ccncc1)C(=O)Oc1cc(C(C)C)ccc1C [3l, 2-Isopropyl-5-methyphenyl (E)-2-(2-isonicotinoylhydrazineylidene)propanoate]",SI for M. kansasii 6509/96,[1],>4000
same,SI for Mtb. 331/88,[2],>4000
"C/C(=N\NC(=O)c1ccncc1)C(=O)Oc1cccc2cccnc12 [3m, Quinolin-8-yl (E)-2-(2-isonicotinoylhydrazineylidene)propanoate]",SI for M. kansasii 6509/96,[1],≥61.7
same,SI for Mtb. 331/88,[2],≥493
"C/C(=N\NC(=O)c1ccncc1)C(=O)OCc1ccncc1 [3n, Pyridin-4-ylmethyl (E)-2-(2-isonicotinoylhydrazineylidene)propanoate]",SI for M. kansasii 6509/96,[1],≥62.5
same,SI for Mtb. 331/88,[2]; SI = IC50 (HepG2)/MIC,≥1000
"C/C(=N\NC(=O)c1ccncc1)C(=O)Oc1cc(Cl)ccc1Oc1ccc(Cl)cc1Cl [3o, 5-Chloro-2-(2,4-dichlorophenoxy)phenyl (E)-2-(2-isonicotinoylhydrazineylidene)propanoate]",SI for M. kansasii 6509/96,[1],≥26.4
same,SI for Mtb. 331/88,[2],1687
"CCSC(=O)/C(C)=N/NC(=O)c1ccncc1 [3r, S-Ethyl (E)-2-(2-isonicotinoylhydrazineylidene)propanethioate]",SI for M. kansasii 6509/96,[1],≥250
"NNC(=O)c1ccncc1 [INH 1, Isoniazid, reference compound]",SI for M. kansasii 6509/96,[1],≥62.5
same,SI for Mtb. 331/88,[2]; SI = IC50 (HepG2)/MIC,>1000

# Read-outs that look alike come from different tables or passages of the source.
